Compound potency records, mixed from different reports. Data source: NIAID ChemDB in PubChem.

Common to all: whole-cell or culture tests; organism: Mycobacterium tuberculosis

Rows are shuffled and stem from different studies.

compound	tested at	setting	endpoint	strain or isolate	read by	cells	result
O=C(Nc1nc(-c2ccccc2)cs1)c1cc(/C=C/c2ccc([N+](=O)[O-])s2)nc2ccccc12			MIC	H37Rv	fluorescence		3.125 µg/mL
O=c1ccc2ncccc2n1CCN1CCC(NCc2cc(Cl)c(Cl)cn2)CC1			MIC	Erdman	resazurin		0.15 µg/mL
Cc1ccc(/C=N/N=C(/N)c2ccccn2)c(C)c1			MIC	1814 (THC-resistant)			16 µg/mL
CCCc1ccc(NC(=O)c2cc(Br)ccc2O)cc1			MIC	My 331/88			2 µM
COc1cc2c(c[n+](C)c3c4cc5c(cc4ccc23)OCO5)c(OC)c1OC	12.5 µg/mL		inhibition	H37Rv	BACTEC		89%
CCCCCCCc1ccc(NC(=O)c2cc(Br)cc(Br)c2O)cc1			MIC	My 331/88			16 µM
CCOC(=O)C(NC(=O)c1ccccc1)(N1CCN(c2cc3c(cc2F)c(=O)c(C(=O)O)cn3CC)CC1)C(F)(F)F			MIC	H37Rv	resazurin		6.25 µg/mL
Brc1ccc(-n2cc(CNC3c4ccccc4-c4ccccc43)nn2)cc1			MIC99	Specimen 192	broth dilution		240 µM
O=C(Nc1ccccc1)c1cc(-c2ccc(-c3ccc([N+](=O)[O-])s3)s2)nc2ccccc12			MIC	H37Rv	fluorescence		>6.25 µg/mL
CC1COc2c(N3CCN(C)CC3)c(F)cc3c(=O)c(C(=O)O)cn1c23		clinical isolate	MIC	Clinical isolate unspecified	resazurin		0.6 µM
CCCCCCCCCCCCSC(=S)NC1c2ccccc2Oc2ccccc21			MIC bound	H37Rv	BACTEC		≤128 µg/mL
Cc1ccc(/C=N/N=C(/N)c2ccccn2)cc1			MIC	1062 (THC-resistant)			32 µg/mL
CC[C@@H]1CC[C@H]2[C@@H]3N(C)c4ccccc4[C@]34C[C@@H](C[C@H]4O)N2[C@H]1O			MIC bound	H37Rv	BACTEC		>12.8 µg/mL
CCCN(CCC)N(C)C(=O)COc1cc2c(O)c3c(O)c(C)c4c(c13)C(=O)[C@@](C)(O/C=C/[C@H](OC)[C@@H](C)[C@@H](OC(C)=O)[C@H](C)[C@H](O)[C@H](C)[C@@H](O)[C@@H](C)/C=C/C=C(/C)C(=O)N2)O4			MIC	H37Rv			0.37 µg/mL
CCCCCCCCN1C(=O)CC(SCC(N)C(=O)O)C1=O			MIC	Clinical isolate (isoniazid-resistant)			≤20 µg/mL
O=C(Nc1nc(-c2ccc(Br)s2)cs1)c1cc(-c2ccc([N+](=O)[O-])s2)nc2ccccc12			MIC	H37Rv	fluorescence		>6.25 µg/mL
CCCCCCc1ccc(NC(=O)c2cc(Cl)ccc2O)cc1			MIC	My 331/88			16 µM
COC1C(=O)CCC2(CO2)C1(O)C1(C)OC1CCC(C)C	12.5 µg/mL		inhibition	H37Rv	BACTEC		37%
CC[C@@H](CO)NCCN[C@@H](CC)CO			MIC	Strain 24			8 µg/mL
NNC(=O)c1cc(/C=C/c2ccc([N+](=O)[O-])s2)nc2ccccc12			MIC	H37Rv	fluorescence		1.56 µg/mL
COc1cc(-n2cc(CSC3c4ccccc4-c4ccccc43)nn2)cc(OC)c1OC			MIC99	Specimen 192	broth dilution		56.11 µM
CNC(=O)COc1cc2c(O)c3c(O)c(C)c4c(c13)C(=O)[C@@](C)(O/C=C/[C@H](OC)[C@@H](C)[C@@H](OC(C)=O)[C@H](C)[C@H](O)[C@H](C)[C@@H](O)[C@@H](C)/C=C/C=C(/C)C(=O)N2)O4			MIC	H37Rv			0.15 µg/mL
c1ccc(-n2cc(CNC3c4ccccc4-c4ccccc43)nn2)cc1			MIC99	Specimen 192	broth dilution		>295 µM
O=C1/C(=N/O)C(c2ccccc2)Oc2ccccc21	12.5 µg/mL		inhibition	H37Rv	BACTEC		20%
COc1cc2ccc3c4c(OC)cc5c(c4c[n+](C)c3c2cc1OC)OCO5	12.5 µg/mL		inhibition	H37Rv	BACTEC		70%
CCCCCCCCCN1C(=O)CC(SCCNC(=O)C2CCCCC2)C1=O			MIC	H37Ra			≤20 µg/mL
C=C1C(=O)O[C@@H](CCCCCCCCCCCCC)[C@@H]1C(=O)O	128 µg/mL		inhibition	H37Rv	BACTEC		90%
CCCCCCc1ccc(NC(=O)c2cc(Br)cc(Br)c2O)cc1			MIC	My 331/88			32 µM
COc1cc(C2C(C(=O)Nc3ccc(Cl)cc3)=C(C)NC(C)=C2C(=O)Nc2ccc(Cl)cc2)cc(OC)c1OC			EC50	H37Rv			<2.5 µg/mL
CN(C)c1ccc2nc3ccc(N)cc3[n+](-c3ccccc3)c2c1.[Cl-]			MIC	H37Rv		VERO	0.8 µg/mL
CCCCN(CC)C(=O)COc1cc2c(O)c3c(O)c(C)c4c(c13)C(=O)[C@@](C)(O/C=C/[C@H](OC)[C@@H](C)[C@@H](OC(C)=O)[C@H](C)[C@H](O)[C@H](C)[C@@H](O)[C@@H](C)/C=C/C=C(/C)C(=O)N2)O4			MIC	H37Rv			0.18 µg/mL
N/C(=N/N=C/c1cccc(F)c1)c1ccccn1			MIC	H37Rv			125 µg/mL
CCCCCCCc1ccc(NC(=O)c2ccc(Cl)cc2O)cc1			MIC	My 331/88			4 µM
O=C(O)c1cn(C2CC2)c2c(F)c(N3CCSCC3)c(F)cc2c1=O			MIC	CSU23			1 µg/mL
C=C(C)C1CC/C(C)=C\CCC2(C)OC2CC/C(CO)=C\C1O			MIC bound	H37Rv	BACTEC		>12.5 µg/mL
CC1=C(C(=O)Nc2ccc([N+](=O)[O-])cc2)C(c2ccc(N(C)C)cc2)C(C(=O)Nc2ccc([N+](=O)[O-])cc2)=C(C)N1			EC50	H37Rv			<2.5 µg/mL
CCCCCCCCCCCCCCCC1C(N)C(=O)N(C)N1C			MIC bound	H37Rv	BACTEC		>12.8 µg/mL
COc1cccc(/C=N/N=C(\N)c2ccccn2)c1OC			MIC	H37Rv			250 µg/mL
O=C1C[C@@H](c2ccc(O)cc2)Oc2cc(O)cc(O)c21	128 µg/mL		inhibition	H37Rv	BACTEC		86%
CCOc1ccc2c(c[n+](C)c3c4cc5c(cc4ccc23)OCO5)c1OC			MIC	H37Rv	BACTEC		<12.5 µg/mL
CN/N=C(/CC(=O)c1sc(NNC(C)=O)nc1C)C(=O)Nc1ccc(OC)cc1OC	6.25 µg/mL		inhibition	H37Rv	resazurin		30%
O=C(Nc1nc(-c2cccs2)cs1)c1cc(/C=C/c2ccc([N+](=O)[O-])s2)nc2ccccc12			MIC	H37Rv	fluorescence		3.125 µg/mL
CO[C@@H]1CC(=NOC(C)=O)[C@@H]2OC(c3ccccc3)OC[C@H]2O1			MIC bound	H37Rv	resazurin		>6.25 µg/mL
CC1(C)C2CCC(CN3C(=O)c4ccccc4C3=O)C1C2			MIC	H37Rv			≤20 µg/mL
CSc1ccc(C2C(C(=O)Nc3ccccc3Cl)=C(C)NC(C)=C2C(=O)Nc2ccccc2Cl)cc1			EC50	H37Rv			<2.5 µg/mL
CC1CN(c2c(F)cc3c(=O)c(C(=O)O)cn(C4CC4)c3c2F)CCN1			MIC	Erdman			≤0.125 µg/mL
CCCCCC(C)NC(=O)COc1cc2c(O)c3c(O)c(C)c4c(c13)C(=O)[C@@](C)(O/C=C/[C@H](OC)[C@@H](C)[C@@H](OC(C)=O)[C@H](C)[C@H](O)[C@H](C)[C@@H](O)[C@@H](C)/C=C/C=C(/C)C(=O)N2)O4			MIC	H37Rv			0.18 µg/mL
Cc1cc(C)nc(Nc2nc3ccccc3[nH]2)n1			MIC bound		resazurin		>6.25 µg/mL
O=C(Nc1nc(-c2cccs2)cs1)c1cc(-c2ccccc2)nc2ccccc12			MIC	H37Rv	fluorescence		>6.25 µg/mL
CCCNC(=O)NC1CC(=O)N(CCC)C1=O			MIC	H37Rv	BACTEC		≥12.8 µg/mL
O=C(Nc1nc(-c2cccs2)cs1)c1cc(-c2cccs2)nc2ccccc12			MIC	H37Rv	fluorescence		>6.25 µg/mL
COC(=O)Nn1c(C)c(C(=O)Nc2ccc(OC)cc2)c(C(=O)OC)c1C	6.25 µg/mL		inhibition	H37Rv	resazurin		12%
COc1cc(OC)c2c(c[n+](C)c3c4cc5c(cc4ccc23)OCO5)c1OC			MIC	H37Rv	BACTEC		>12.5 µg/mL
COc1cc(-n2cc(CNC3c4ccccc4-c4ccccc43)nn2)cc(OC)c1OC			MIC99	H37Rv	broth dilution		58.34 µM
CC1CN(c2c(F)cc3c(=O)c(C(=O)O)cn(C4CC4)c3c2F)CC(C)N1			MIC	CSU27			≤0.125 µg/mL
CC[C@@H](CO)NCCN[C@@H](CC)CO			MIC	MDR3	broth dilution / resazurin		128 µg/mL
CC1CCc2c(-n3ccnc3)c(F)cc3c(=O)c(C(=O)O)cn1c23			MIC50	100 strains			25 µg/mL
CCCCCCCCCN1C(=O)CC(SCCNC(=O)C(CC)CCCC)C1=O			MIC	Clinical isolate (isoniazid-resistant)			≤20 µg/mL
N/C(=N/N=C/c1ccc(Cl)cc1)c1ccccn1			MIC	1454 (THC-resistant)			64 µg/mL
CCCCCc1ccc(NC(=O)c2cc(Br)cc(Br)c2O)cc1			MIC	My 331/88			32 µM
CCCCN(C(=O)COc1cc2c(O)c3c(O)c(C)c4c(c13)C(=O)[C@@](C)(O/C=C/[C@H](OC)[C@@H](C)[C@@H](OC(C)=O)[C@H](C)[C@H](O)[C@H](C)[C@@H](O)[C@@H](C)/C=C/C=C(/C)C(=O)N2)O4)N1CCOCC1			MIC	H37Rv			1.5 µg/mL
CC[C@H]1OC(=O)[C@H](C)[C@@H](O[C@H]2C[C@@](C)(OC)[C@@H](O)[C@H](C)O2)[C@H](C)[C@@H](O[C@@H]2O[C@H](C)C[C@H](N(C)C)[C@H]2O)[C@](C)(O)C[C@@H](C)C(=O)[C@H](C)[C@@H](O)[C@]1(C)O			MIC50	23 strains			>25 µg/mL
N/C(=N/N=C/c1cccc(Br)c1)c1ccccn1			MIC	1814 (THC-resistant)			16 µg/mL
COc1cc2c[n+](C)c3c4cc5c(cc4ccc3c2cc1OC)OCO5	12.5 µg/mL		inhibition	H37Rv	BACTEC		95%
NC(=O)C(=O)N/N=C1\c2ccccc2CC1C1(O)C(=O)Nc2c(Cl)cc(Cl)cc21	12.5 µg/mL		inhibition	H37Rv	BACTEC		-1%
COc1cc2c3c(OC)cc4c(c3c[n+](C)c2c2cc3c(cc12)OCO3)OCO4	12.5 µg/mL		inhibition	H37Rv	BACTEC		99%
CCCCN(C(=O)COc1cc2c(O)c3c(O)c(C)c4c(c13)C(=O)[C@@](C)(O/C=C/[C@H](OC)[C@@H](C)[C@@H](OC(C)=O)[C@H](C)[C@H](O)[C@H](C)[C@@H](O)[C@@H](C)/C=C/C=C(/C)C(=O)N2)O4)N(CC)CC			MIC	H37Rv			0.18 µg/mL
Cc1nc(C#N)c(=N)n(CCCO)c1-c1ccccc1	12.5 µg/mL		inhibition	H37Rv	BACTEC		7%
CCSN(SCC)C(=S)c1c(C#N)cc([N+](=O)[O-])cc1[N+](=O)[O-]			MIC				5.37 µg/mL
CN[C@H](CC(C)C)C(=O)N[C@H]1C(=O)N[C@@H](CC(N)=O)C(=O)N[C@H]2C(=O)N[C@H]3C(=O)N[C@H](C(=O)N[C@H](C(=O)O)c4cc(O)cc(O)c4-c4cc3ccc4O)[C@H](O)c3ccc(c(Cl)c3)Oc3cc2cc(c3O[C@@H]2O[C@H](CO)[C@@H](O)[C@H](O)[C@H]2O[C@H]2C[C@](C)(N)[C@H](O)[C@H](C)O2)Oc2ccc(cc2Cl)[C@H]1O			MIC90	24 strains			>25 µg/mL
O=C1Cc2ccccc2C(O)=C1c1cnccn1	12.5 µg/mL		inhibition	H37Rv	BACTEC		13%
N/C(=N/N=C/c1ccccc1)c1ccccn1			MIC	1062 (THC-resistant)			64 µg/mL
CC(C)=CCOc1cc(NC(=S)c2ccoc2C)ccc1Cl	6.25 µg/mL		inhibition	H37Rv	BACTEC		46%
COc1cc2c[n+](C)c3c4cc(OC)c(OC(C)C)cc4ccc3c2cc1OC	12.5 µg/mL		inhibition	H37Rv	BACTEC		98%
Cc1ccc(N=NC2Sc3nc4ccccc4n3C2=O)cc1			MIC	H37Rv	BACTEC		≥12.5 µg/mL
CC1=C(C(=O)Nc2cccc([N+](=O)[O-])c2)C(c2ccc(Cl)cc2Cl)C(C(=O)Nc2cccc([N+](=O)[O-])c2)=C(C)N1	2.5 µg/mL		inhibition	H37Rv			98%

10 of the rows above, restated:

compound	tested at	setting	endpoint	strain or isolate	read by	cells	result
CC1=C(C(=O)Nc2cccc([N+](=O)[O-])c2)C(c2ccc(Cl)cc2Cl)C(C(=O)Nc2cccc([N+](=O)[O-])c2)=C(C)N1	2.5 µg/mL		inhibition	H37Rv			98%
N/C(=N/N=C/c1cccc(Br)c1)c1ccccn1			MIC	1814 (THC-resistant)			16 µg/mL
N/C(=N/N=C/c1ccc(Cl)cc1)c1ccccn1			MIC	1454 (THC-resistant)			64 µg/mL
O=C1Cc2ccccc2C(O)=C1c1cnccn1	12.5 µg/mL		inhibition	H37Rv	BACTEC		13%
COc1cc(C2C(C(=O)Nc3ccc(Cl)cc3)=C(C)NC(C)=C2C(=O)Nc2ccc(Cl)cc2)cc(OC)c1OC			EC50	H37Rv			<2.5 µg/mL
CO[C@@H]1CC(=NOC(C)=O)[C@@H]2OC(c3ccccc3)OC[C@H]2O1			MIC bound	H37Rv	resazurin		>6.25 µg/mL
CCSN(SCC)C(=S)c1c(C#N)cc([N+](=O)[O-])cc1[N+](=O)[O-]			MIC				5.37 µg/mL
O=C1/C(=N/O)C(c2ccccc2)Oc2ccccc21	12.5 µg/mL		inhibition	H37Rv	BACTEC		20%
CCOC(=O)C(NC(=O)c1ccccc1)(N1CCN(c2cc3c(cc2F)c(=O)c(C(=O)O)cn3CC)CC1)C(F)(F)F			MIC	H37Rv	resazurin		6.25 µg/mL
O=C(Nc1nc(-c2ccc(Br)s2)cs1)c1cc(-c2ccc([N+](=O)[O-])s2)nc2ccccc12			MIC	H37Rv	fluorescence		>6.25 µg/mL

A number after MIC or MFC names an inhibition level or a share of isolates. ECn: concentration that inhibits the pathogen or its effect by n%. MIC bound: limit read from a one-dose screen. Inhibition is in % at the dose shown (toxicity tests: loss of growth or viability). Blank or dashed fields: not listed here.